Experimental data: article PMC8594587 (Journal of medicinal chemistry, 2021)

Columns and labels:
Format in all cases: cell-based
[1] = tested on: HIV-1 Y188L; experiment: Activity against mutant HIV-1 strain Y188L in MT-4 cells, MTT method; conditions: EC50 ratio to RPV
[2] = tested on: HIV-1 F227L+V106A; conditions: EC50 ratio to RPV
[3] = tested on: HIV-2 ROD; experiment: Anti-HIV-2 ROD activity in MT-4 cells, MTT method; conditions: Human immunodeficiency virus 2, MT4, read-out: EC50 ROD

| Structure (SMILES) | fold activity enhancement over RPV, Y188L [1] [fold] | fold activity enhancement over RPV, F227L+V106A [2] [fold] | EC50 [3] [µM] |
| --- | --- | --- | --- |
| Cc1cc(C#N)cc(C)c1Oc1nc(NC2CCN(Cc3ccc(C(N)=O)cc3)CC2)ncc1-c1ccncc1 [Compound 16c, 4-((4-((4-(4-cyano-2,6-dimethylphenoxy)-5-(pyridin-4-yl)pyrimidin-2-yl)amino)piperidin-1-yl)methyl)benzamide] | 11 | 7.8 | – |
| Cc1cc(C#N)cc(C)c1Oc1nc(NC2CCN(Cc3ccc(S(C)(=O)=O)cc3)CC2)ncc1-c1ccsc1 [Compound 12b, 3,5-dimethyl-4-((2-((1-(4-(methylsulfonyl)benzyl)piperidin-4-yl)amino)-5-(thiophen-3-yl)pyrimidin-4-yl)oxy)benzonitrile] | – | – | > 4.25 |
| Cc1cc(C#N)cc(C)c1Oc1nc(NC2CCN(Cc3ccc(S(N)(=O)=O)cc3)CC2)ncc1-c1ccoc1 [Compound 14a, 4-((4-((4-(4-cyano-2,6-dimethylphenoxy)-5-(furan-3-yl)pyrimidin-2-yl)amino)piperidin-1-yl)methyl)benzenesulfonamide] | – | – | > 29.1 |
| Cc1cc(C#N)cc(C)c1Oc1nc(NC2CCN(Cc3ccc(S(N)(=O)=O)cc3)CC2)ncc1-c1ccncc1 [Compound 16a, 4-((4-((4-(4-cyano-2,6-dimethylphenoxy)-5-(pyridin-4-yl)pyrimidin-2-yl)amino)piperidin-1-yl)methyl)benzenesulfonamide] | – | – | > 5.67 |
| Cc1cc(C#N)cc(C)c1Oc1nc(NC2CCN(Cc3ccc(C(N)=O)cc3)CC2)ncc1-c1cccs1 [Compound 11c, 4-((4-((4-(4-cyano-2,6-dimethylphenoxy)-5-(thiophen-2-yl)pyrimidin-2-yl)amino)piperidin-1-yl)methyl)benzamide] | – | – | > 9.26 |
| Cc1cc(C#N)cc(C)c1Oc1nc(NC2CCN(Cc3ccc(S(C)(=O)=O)cc3)CC2)ncc1-c1ccoc1 [Compound 14b, 4-((5-(furan-3-yl)-2-((1-(4-(methylsulfonyl)benzyl)piperidin-4-yl)amino)pyrimidin-4-yl)oxy)-3,5-dimethylbenzonitrile] | – | – | > 55.8 |
| Cc1cc(C#N)cc(C)c1Oc1nc(NC2CCN(Cc3ccc(S(N)(=O)=O)cc3)CC2)ncc1-c1ccco1 [Compound 13a, 4-((4-((4-(4-cyano-2,6-dimethylphenoxy)-5-(furan-2-yl)pyrimidin-2-yl)amino)piperidin-1-yl)methyl)benzenesulfonamide] | – | – | > 11.2 |
| Cc1cc(C#N)cc(C)c1Oc1nc(NC2CCN(Cc3ccc(S(C)(=O)=O)cc3)CC2)ncc1-c1cccs1 [Compound 11b, 3,5-dimethyl-4-((2-((1-(4-(methylsulfonyl)benzyl)piperidin-4-yl)amino)-5-(thiophen-2-yl)pyrimidin-4-yl)oxy)benzonitrile] | – | – | > 8.38 |
| Cc1cc(C#N)cc(C)c1Oc1nc(NC2CCN(Cc3ccc(C(N)=O)cc3)CC2)ncc1-c1ccco1 [Compound 13c, 4-((4-((4-(4-cyano-2,6-dimethylphenoxy)-5-(furan-2-yl)pyrimidin-2-yl)amino)piperidin-1-yl)methyl)benzamide] | – | – | > 7.35 |
| Cc1cc(C#N)cc(C)c1Oc1nc(NC2CCN(Cc3ccc(S(N)(=O)=O)cc3)CC2)ncc1-c1ccccc1 [Compound 15a, 4-((4-((4-(4-cyano-2,6-dimethylphenoxy)-5-phenylpyrimidin-2-yl)amino)piperidin-1-yl)methyl)benzenesulfonamide] | – | – | > 14.1 |
| Cc1cc(C#N)cc(C)c1Oc1nc(NC2CCN(Cc3ccc(S(C)(=O)=O)cc3)CC2)ncc1-c1ccccc1 [Compound 15b, 3,5-dimethyl-4-((2-((1-(4-(methylsulfonyl)benzyl)piperidin-4-yl)amino)-5-phenylpyrimidin-4-yl)oxy)benzonitrile] | – | – | > 12.1 |
| Cc1cc(C#N)cc(C)c1Oc1nc(NC2CCN(Cc3ccc(C(N)=O)cc3)CC2)ncc1-c1ccsc1 [Compound 12c, 4-((4-((4-(4-cyano-2,6-dimethylphenoxy)-5-(thiophen-3-yl)pyrimidin-2-yl)amino)piperidin-1-yl)methyl)benzamide] | – | – | > 37.3 |
| Cc1cc(C#N)cc(C)c1Oc1nc(NC2CCN(Cc3ccc(S(C)(=O)=O)cc3)CC2)ncc1-c1ccncc1 [Compound 16b, 3,5-dimethyl-4-((2-((1-(4-(methylsulfonyl)benzyl)piperidin-4-yl)amino)-5-(pyridin-4-yl)pyrimidin-4-yl)oxy)benzonitrile] | – | – | > 17.2 |
